Measured values from several laboratories, pooled; numbers as filed in NIAID ChemDB.

Common to all: toxicity to cultured cells; cells: HepG2; measure: CC50

Blank or dashed fields: not listed here. CCn is the concentration with n% toxicity to the cells. Conditions beyond the fields shown may differ between rows.

compound,read by,value
CNC(=O)C1CC(n2c(NC(C)C)nc3c(c2=O)C[C@@H](C)N(C(=O)c2ccc(Cl)c(C(F)(F)F)c2)C3)C1,luminescence,>50 µM
CCOC(=O)CCCCCOc1cccc(CN(C(=O)c2ccc(-c3cccc(CC(=O)O)c3)cc2)C(C)C)c1,,>20 µM
COc1cccc(CNCCCNc2ccnc3cc(Oc4ccc(Cl)cc4)ccc23)c1O,fluorescence,5.7 µM
CCOC(=O)COC1CCC(NC(=O)C(=O)c2c(C)c(C(=O)Nc3ccc(F)c(C)c3)c(C)n2C)CC1,MTT,>30 µM
CNC(=O)[C@@H]1CC[C@H](n2c(NC(C)C)nc3c(c2=O)C[C@@H](C)N(C(=O)c2ccc(Cl)c(C(F)(F)F)c2)C3)C1,luminescence,15.6 µM
CC(C)N(Cc1cccc(OCCCCCC(=O)OC(=O)O)c1)C(=O)c1ccc(-c2ccoc2)cc1,,>20 µM
COc1ccc(-c2ccc3c(NCCCNCc4cc(F)ccc4OC)ccnc3c2)cc1,fluorescence,5.96 µM
CNC(=O)N1CCC(n2c(NC(C)C)nc3c(c2=O)C[C@@H](C)N(C(=O)c2ccc(Cl)c(C(F)(F)F)c2)C3)CC1,luminescence,>50 µM
Cc1cc(NC(=O)c2c(C)c(C(=O)C(=O)NCC(C)(C)O)n(C)c2C2CCCCC2)ccc1F,MTT,>30 µM
COc1cc2c(cc1OC)C(CC1(C)OCCO1)=NCC2,,<7.5 µM
Cc1cc(NC(=O)c2c(C)c(C(=O)C(=O)NC3CCC(S(C)(=O)=O)CC3)n(C)c2C(C)C)ccc1F,MTT,>30 µM
c1ccc(Cc2ccc3c(NCCCNCc4ccco4)ccnc3c2)cc1,fluorescence,16 µM
CCOC(=O)CCCCCOc1cccc(CN(C(=O)c2ccc(-c3ccc4c(c3)OCO4)cc2)C(C)C)c1,,>20 µM
C#Cc1ccc(C(=O)N2Cc3nc(NC(C)C)n(-c4ccc(C(=O)NC)cc4)c(=O)c3C[C@H]2C)cc1C(F)(F)F,luminescence,>50 µM
CCOC(=O)COc1ccc(CO)cc1,,>20 µM
COc1ccc(F)cc1CNCCCNc1ccnc2cc(CCc3ccccc3)ccc12,fluorescence,4.24 µM
Cc1cc(F)cc(NC(=O)c2c(C)c(C(=O)C(=O)NC(C)(C)C)n(C)c2C)c1,MTT,>30 µM
CCCNCc1ccc(OCC(=O)OCC)cc1,,>20 µM
CNC(=O)[C@@H]1CC[C@@H](n2c(NC(C)C)nc3c(c2=O)C[C@@H](C)N(C(=O)c2ccc(Br)c(C(F)(F)F)c2)C3)C1,luminescence,15.7 µM
COc1ccc(F)cc1CNCCCNc1ccnc2cc(-c3cccc4ccccc34)ccc12,fluorescence,16 µM
Cc1cc(NC(=O)c2c(C)c(C(=O)C(=O)NC3CCC(S(C)(=O)=O)CC3)n(C)c2-c2cccnc2)ccc1F,MTT,>30 µM
CNC(=O)c1ccc(-n2c([C@H]3CC3(F)F)nc3c(c2=O)C[C@@H](C)N(C(=O)c2ccc(Cl)c(C(F)(F)F)c2)C3)cc1,luminescence,>50 µM
Cc1cc(NC(=O)c2c(C)c(C(=O)C(=O)NC3C[C@@H]4CC(O)[C@H]3C4)n(C)c2C)ccc1F,MTT,>30 µM
CC(C)N(Cc1cccc(OCCCCCC(=O)OC(=O)O)c1)C(=O)c1ccc(-c2cccc(NC=O)c2)cc1,,>20 µM

The last 3 rows once more:

CNC(=O)c1ccc(-n2c([C@H]3CC3(F)F)nc3c(c2=O)C[C@@H](C)N(C(=O)c2ccc(Cl)c(C(F)(F)F)c2)C3)cc1 ; read by: luminescence ; value: >50 µM
Cc1cc(NC(=O)c2c(C)c(C(=O)C(=O)NC3C[C@@H]4CC(O)[C@H]3C4)n(C)c2C)ccc1F ; read by: MTT ; value: >30 µM
CC(C)N(Cc1cccc(OCCCCCC(=O)OC(=O)O)c1)C(=O)c1ccc(-c2cccc(NC=O)c2)cc1 ; value: >20 µM